## Results of single-concentration screens

From ChEMBL document CHEMBL3988442, “University of Dundee, Small-Polar-MMV Screening Library” (2021).

Mtb glucose medium: 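Whole-cell growth test on Mycobacterium tuberculosis, read after 3 days in glucose-containing 7H9 medium; the read-out is not stated. Compounds at 500 µM. Direction is inferred from retests: higher values go with more growth inhibition. Of about 18,000 compounds tested this way, about 1,400 (7.9%) reached 50% or more in at least one test.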
Mtb cholesterol medium: 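Phenotypic screen: M. tuberculosis growth, cholesterol and DPPC medium, 4 days; the read-out is not stated. Compounds at 500 µM. The record gives no direction; compounds that gave an IC50 in retests scored well above the rest, so higher reads as more growth inhibition. About 18,000 compounds were tested under these conditions; 5% (about 900) showed 50% or more at least once.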

Results are given as percent effect. The controls that fix the scale are not given in the record; negative values are as filed. The entries come from a sample that favours strong results. A dash means the value is not listed here; it may have been measured.

| compound | Mtb glucose medium | Mtb cholesterol medium |
|---|---|---|
| `CNC(=O)c1cc(OC2CCCNC2)ccn1` (centres undefined) | 2.831 | - |
| `O=C(NCC1(CO)CC1)OCc1ccccc1` | 60.99 | 54.81 |
| `O=C(CCc1ccccc1)N1CCCNCC1` | 58.21 | - |
| `O=C(CCN1CCCCC1)c1ccc2c(c1)OCO2` | 69.26 | 28.48 |
| `Cn1c(CCO)nc2ccccc21` | 13.59 | - |
| `CC(Nc1nc2ccccc2o1)C(=O)N1CCOCC1` (centres undefined) | 48.79 | 38.59 |
| `OCC(F)(F)CNCc1cccc(-n2cccn2)c1` | - | 19.43 |
| `CNC(C)c1ccco1` (centres undefined) | 17.56 | - |
| `COc1cc(CNCC(C)O)cc(Cl)c1OCC(N)=O` (centres undefined) | - | -0.816 |
| `OC(c1cc(F)ccc1F)C1CCNCC1` (centres undefined) | 28.32 | - |
| `CCN(C)CC1CCN(S(=O)(=O)c2cccnc2)C1` (centres undefined) | - | -6.036 |
| `N#Cc1ccc(OC2CCC(N)CC2)nc1` (centres undefined) | -17.7 | - |
| `CC(C)C(N)c1ncon1` (centres undefined) | -0.2025 | - |
| `COc1cc(CN2CCNCC2)cc(OC)c1` | 32.94 | 15.12 |
| `CC(C(N)=O)S(=O)(=O)c1ncccc1Cl` (centres undefined) | 5.009 | -3.892 |
| `CCn1cncc1CN1CCCC(NC(C)=O)C1` (centres undefined) | -2.094 | - |
| `CC(C)(C)c1nc(C(C)(C)N)no1` | 0.2492 | - |
| `Cc1cc(N2CCCC(NS(C)(=O)=O)C2)nc(C)n1` (centres undefined) | -7.928 | - |
| `CC(NC(=O)c1ccccc1Cl)C(=O)NC1CC1` (centres undefined) | - | -6.947 |
| `NCCCN1CCN(c2ccccc2F)CC1` | 60.25 | 104.7 |
| `NCc1ccc(-c2cccnc2)o1` | 20.85 | - |
| `NC(=O)c1ccc(NCC(=O)N2CCOCC2)cc1Cl` | 2.719 | - |
| `CCOCC1CCN(C(=O)c2ccc(F)c(O)c2)CC1` | - | 29.42 |
| `CC(C)(C)NC(=O)N1CCCC(CC(N)=O)C1` (centres undefined) | -5.757 | - |
| `CC1(C)CC(n2cccn2)C(C)(C)O1` (centres undefined) | -1.773 | - |
| `CCCOc1cc(CNC(=O)c2csnc2C)ccn1` | 67.38 | 69.93 |
| `O=C(NCCCNCc1cccnc1)c1occc1Br` | -5.127 | - |
| `O=C(CC1CCCC1)NC1CCCc2[nH]c(=O)ccc21` (centres undefined) | 4.925 | - |
| `c1cc(CNc2ncnc3[nH]ncc23)c2c(c1)OCO2` | 21.99 | - |
| `CC1=Nc2ccccc2CN1` | - | -5.81 |
| `O=C(O)c1cccnc1N1CCC2(CCCNC2)C1` (centres undefined) | -13.77 | - |
| `CSCC1CCCN1C(=O)c1ccc(CN)cc1` (centres undefined) | 18.34 | - |
| `Cc1noc(NCc2cc3ccccc3nc2O)n1` | -5.32 | - |
| `O=C(c1c(F)cccc1Cl)N1CCNCC1` | 6.897 | - |
| `Cc1noc(C)c1CNC1CCN(C)CC1` | -4.08 | - |
| `CC(NC(=O)c1ccc(Cl)c(S(C)(=O)=O)c1)C1CC1` (centres undefined) | 37.84 | 25.73 |
| `NC(=O)Cc1cccc(O)c1` | - | 7.474 |
| `COCCNC(=O)c1ccc(N2CCCC(O)C2)nc1` (centres undefined) | - | -1.043 |
| `Cc1nc(C(=O)N2CCSCC2)c(C)s1` | 10 | - |
| `Cc1[nH][nH]c(=O)c1CCN` | - | 54.99 |
| `c1cn(C2CCCNC2)nn1` (centres undefined) | -5.985 | -11.75 |
| `c1cnn(CCN2CCCC(Cn3cncn3)C2)c1` (centres undefined) | -10.59 | - |
| `CCc1ccccc1NC(=O)C1=NN(C)C(=O)CC1` | -11.31 | - |

The last 4 entries again:

Cc1[nH][nH]c(=O)c1CCN read Mtb cholesterol medium: 54.99%.
c1cn(C2CCCNC2)nn1 (centres undefined) read Mtb glucose medium: -5.985%; Mtb cholesterol medium: -11.75%.
c1cnn(CCN2CCCC(Cn3cncn3)C2)c1 (centres undefined) read Mtb glucose medium: -10.59%.
CCc1ccccc1NC(=O)C1=NN(C)C(=O)CC1 read Mtb glucose medium: -11.31%.